Experimental findings from publication PMC6894747 (PLoS Pathogens, 2019) are described below.

Positions of bridges follow the written chain, without caps; N, C: chain ends. Residues, ends and D or L forms follow the SMILES beside them. No end group written: not given here.

For this data set, the system named is rhesus monkey IgG. Briefly: Isothermal titration calorimetry (ITC). It counts as binding. As to conditions: for ΔH / ΔS: ITC, 300 μM peptide into 30 μM rhesus monkey IgG, PBS, 25 °C. How it is done:
ITC assay was performed with an ITC microcalorimeter instrument (NANO ITC, TA Instruments, Lindon, UT) as described previously. In brief, 300 μM peptides were dissolved in PBS and injected into the chamber containing 30 μM of rhesus monkey IgG. The experiments were carried out at 25 °C. The time between injections was 300 s, and the stirring speed was 300 rpm. The heats of dilution were determined in control experiments by injecting peptides into PBS and then subtracting from the heats produced in the corresponding peptide-IgG binding experiments. Data acquisition and analysis were performed using the Origin software, and the best fitting curves were generated with GraphPad Prism.

`CC(C)C[C@@H]1NC(=O)[C@H](Cc2c[nH]cn2)NC(=O)[C@H](Cc2c[nH]c3ccccc23)NC(=O)[C@H](C)NC(=O)[C@@H](NC(=O)[C@@H](N)CC(=O)O)CSSC[C@@H](C(=O)N[C@H](C(=O)O)[C@@H](C)O)NC(=O)[C@H](Cc2c[nH]c3ccccc23)NC(=O)[C@H](C(C)C)NC(=O)[C@H](CC(C)C)NC(=O)[C@H](CCC(=O)O)NC(=O)CNC1=O` [IBP] gave a ΔH of -4.039 kcal/mol and a ΔS of 50.79 J/mol.K.

As to “MTWEEWDKKIEEYTKKIEELIKKS [CP24, reference compound]”, the ΔH is -6.121 kcal/mol and the ΔS is reported as -28.46 J/mol.K.

For `CC[C@H](C)[C@H](NC(=O)[C@H](CC(C)C)NC(=O)[C@H](CCC(=O)O)NC(=O)[C@H](CCC(=O)O)NC(=O)[C@@H](NC(=O)[C@H](CCCCN)NC(=O)[C@H](CCCCN)NC(=O)[C@@H](NC(=O)[C@H](Cc1ccc(O)cc1)NC(=O)[C@H](CCC(=O)O)NC(=O)[C@H](CCC(=O)O)NC(=O)[C@@H](NC(=O)[C@H](CCCCN)NC(=O)[C@H](CCCCN)NC(=O)[C@H](CC(=O)O)NC(=O)[C@H](Cc1c[nH]c2ccccc12)NC(=O)[C@H](CCC(=O)O)NC(=O)[C@H](CCC(=O)O)NC(=O)[C@H](Cc1c[nH]c2ccccc12)NC(=O)[C@@H](NC(=O)[C@H](CCSC)NC(=O)[C@@H](NC(=O)[C@@H]1CSSC[C@H](NC(=O)[C@@H](N)CC(=O)O)C(=O)N[C@@H](C)C(=O)N[C@@H](Cc2c[nH]c3ccccc23)C(=O)N[C@@H](Cc2c[nH]cn2)C(=O)N[C@@H](CC(C)C)C(=O)NCC(=O)N[C@@H](CCC(=O)O)C(=O)N[C@@H](CC(C)C)C(=O)N[C@@H](C(C)C)C(=O)N[C@@H](Cc2c[nH]c3ccccc23)C(=O)N1)[C@@H](C)O)[C@@H](C)O)[C@@H](C)CC)[C@@H](C)O)[C@@H](C)CC)C(=O)N[C@@H](CCCCN)C(=O)N[C@@H](CCCCN)C(=O)N[C@@H](CO)C(=O)O` [IBP-CP24] (H-DCAWHLGELVWCTMTWEEWDKKIEEYTKKIEELIKKS-OH; disulfide 2-12; N-terminus and C-terminus assumed), the ΔH was -12.96 kcal/mol and the ΔS was -66.54 J/mol.K. In addition, under “ITC Kd comparison with IBP”, the “fold more potent binding to monkey IgG than IBP” value is given as “about 1.6 fold”.
